From patent US20210371504A1

Target: SARS-CoV-2 Spike protein on pseudotyped virus (isolate BetaCoV/Wuhan-Hu-1/2019) (SARS-CoV-2 Wuhan-Hu-1) (UniProt P0DTC2)
Assay: cell-based or functional assay

S309 N55Q MLNS GAALIE (antibody)
calculated EC50, neutralization of SARS-CoV-2 pseudotyped virus: 0.0221 µg/mL
